What was measured:
Assay type in all cases: in vivo
[1] = system: Podosphaera leucotricha (E&E) Salm.; test: Foliar fungicidal activity, control of apple powdery mildew on apple seedlings; details: for activity against apple powdery mildew: in words
[2] = system: Erysiphe graminis f. sp. hordei; test: Foliar fungicidal activity, control of barley powdery mildew on barley; details: 500 ppm
[3] = system: Pyricularia oryzae Carvara; test: Foliar fungicidal activity, control of rice blast on rice
[4] = system: Venturia inaequalis (Cke.) Wint.; test: Foliar fungicidal activity, control of apple scab on apple seedlings

## O=[N+]([O-])Nc1c(Br)cc([N+](=O)[O-])cc1Br
[1]
  activity against apple powdery mildew: active

## CCC(C)N(c1c([N+](=O)[O-])cc(C)c(C)c1[N+](=O)[O-])[N+](=O)[O-] (stereo not drawn)
[2]
  Barley Powdery Mildew Percent Disease Control: 89%

## O=[N+]([O-])Nc1c(Cl)cc([N+](=O)[O-])cc1Cl
[2]
  Barley Powdery Mildew Percent Disease Control: 100%
[1]; 500 ppm
  Apple Powdery Mildew Percent Disease Control: 84%
[1]
  activity against apple powdery mildew: active

## O=[N+]([O-])Nc1c(Cl)c(Cl)c([N+](=O)[O-])c(Cl)c1Cl
[3]; 500 ppm
  Rice Blast Percent Disease Control: 86%
[3]; in words
  activity against the rice blast pathogen: considerable activity
[4]; 500 ppm
  Apple Scab Percent Disease Control: 81%
[4]; in words
  activity against apple scab: active
